PubChem BioAssay AID624099, ICCB-Longwood – 2012

Assay: 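Host factors E2 relies on to silence an HPV18 LCR reporter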 (primary screen)
Cell system: human C33A cervical carcinoma cells (HPV-negative) stably expressing BPV1 E2 and an HPV18 LCR luciferase reporter
Reagents: siRNA pool against human genes, 40 nM
Time to read-out: 72 h
Measurement: 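HPV18 LCR reporter light per well, converted to plate-wise z-scores that exclude control wells, and averaged over triplicate plates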
Reading the numbers: mean z-score and z-score: higher = stronger reporter signal, weaker E2 silencing
Rule for the call: 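Mean z ≥ 2 together with z ≥ 2 in two or more of the three replicates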
In all, the deposit lists about 21,000 reagents; below is a part drawn at random. Over the whole deposit, 497 (2.4%) were called active. 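Higher z means weaker E2 silencing; only reporter increases were scored, and knock-downs that hurt cell survival may mask genuine repressor factors.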 Unmarked entries are inactive.

no.	target gene	mean z-score	z-score, replicate A	z-score, replicate B	z-score, replicate C
1	PLSCR1	0.5	0.47	0.56	0.47
2	SSR1	-0.23	-0.28	-0.25	-0.16
3	NIPSNAP3B	0.83	0.62	1.1	0.75
4	SLC27A4	-0.59	-0.57	-0.76	-0.43
5	KLHL3	0.6	0.57	0.7	0.54
6	VWF	0.21	0.35	0.58	-0.3
7	GYPE	0.13	0.07	0	0.31
8	LOC391030 (retired record)	-0.26	-0.3	-0.34	-0.15
9	ZCCHC12	-0.4	-0.5	-0.24	-0.45
10	SPON1	-0.85	-0.92	-0.81	-0.81
11	CYP2J2	-0.19	-0.19	-0.12	-0.25
12	ZBTB18	0.51	1.21	0.35	-0.04
13	ZNF155	0.23	0.26	0.26	0.18
14	RPS15P3	-0.11	0.13	-0.36	-0.11
15	PROM2	-0.37	-0.23	-0.6	-0.29
16	TBC1D9	-0.43	0.11	-0.77	-0.62
17	DROSHA	0.37	0.15	0.56	0.39
18	ADAM28	-1.09	-0.6	-1.49	-1.18
19	FMNL3	0.51	0.04	0.84	0.64
20	ADAMTS20	-0.66	-0.43	-0.77	-0.78
21	TOMM22	0.1	0.3	-0.08	0.08
22	LYVE1	-0.95	-0.99	-0.87	-0.99
23	RTP3	0.7	0.62	0.47	1.01

2 entries from above in another layout:
target gene	mean z-score	z-score, replicate A	z-score, replicate B	z-score, replicate C
KLHL3	0.6	0.57	0.7	0.54
VWF	0.21	0.35	0.58	-0.3
